Anti-infective test results gathered from many reports (values: NIAID ChemDB through PubChem).

Shared fields: tests in culture; organism: Candida albicans; read-out: MIC

An empty or dashed field is not shown. Conditions beyond the fields shown may differ between rows. Two numbers with a dash give a range or band.

| SMILES | strain or isolate | read by | result |
|---|---|---|---|
| Cn1c([N+](=O)[O-])cnc1S(C)(=O)=O | 18 isolates | - | 60 µg/mL |
| COc1ccc2nc(Oc3ccc(F)cc3)c(C3C(C#N)=C(N)OC4=C3C(=O)CCC4)cc2c1 | MTCC 227 | - | 500 µg/mL |
| CCOC(=O)C1=C(N)N(c2nc(-c3ccccc3O)cs2)C2=C(C(=O)CCC2)C1c1cc2cc(OC)ccc2nc1F | MTCC 227 | broth dilution | 100 µg/mL |
| Cc1ccc(Oc2nc3ccccc3cc2C2C(C#N)=C(N)OC3=C2C(=O)CC(C)(C)C3)cc1 | MTCC 227 | - | 500 µg/mL |
| CCC(C)n1ncn(-c2ccc(N3CCN(c4ccc(OC[C@H]5CO[C@](Cn6cncn6)(c6ccc(Cl)cc6Cl)O5)cc4)CC3)cc2)c1=O | Isogenic isolate 4 MDR1 (25X) | - | 0.03 µg/mL |
| N#CCc1ccccc1 | - | broth dilution | 600 µg/mL |
| CCOC(=O)C1=C(N)N(c2nc(-c3ccccc3O)cs2)C2=C(C(=O)CCC2)C1c1cc2cc(Cl)ccc2nc1F | MTCC 227 | broth dilution | 250 µg/mL |
| CCn1cc(C(=O)NC)c(=O)c2ccc(C)nc21 | - | - | 100–200 µg/mL |
| COc1cc(O)c2c(c1)C(=O)c1c(cc3c(c1O)-c1c(cc(C)c(C(=O)N[C@H](C)C(=O)O)c1O)[C@H](O[C@@H]1O[C@H](C)[C@H](N)[C@H](O[C@@H]4OC[C@@H](O)[C@H](O)[C@@H]4O)[C@H]1O)[C@H]3O)C2=O | A9540 | - | 3.1 µg/mL |
| COc1ccc2nc(Oc3ccc(C)cc3)c(C3C(C#N)=C(N)Oc4c3c(=O)oc3ccc(C)cc43)cc2c1 | MTCC 227 | - | 200 µg/mL |
| CC1=CC[C@H]2C(C)(C)CCC[C@]2(C)[C@H]1C/C=C(\C)CCC/C(C)=C/Cc1cc(O)ccc1O | ATCC 10231 | - | >100 µg/mL |
| CN[C@@H]1[C@H](O)[C@@H](O)[C@H](O[C@H]2c3cc(C)c(C(=O)N[C@H](C)C(=O)O)c(O)c3-c3c(cc4c(c3O)C(=O)c3cc(OC)cc(O)c3C4=O)[C@@H]2O)O[C@@H]1C | 83-2-14 | - | 3.1 µg/mL |
| CC(C)=CCC[C@H](C)C12CCC13C=CC3(C)OO2 | - | - | 30 µg/mL |
| CCC(C)CC(C)CCCCCCCCC(=O)N[C@H]1C[C@@H](O)[C@@H](O)NC(=O)[C@@H]2[C@@H](O)CCN2C(=O)[C@H]([C@H](O)CC(N)=O)NC(=O)[C@H]([C@H](O)[C@@H](O)c2ccc(OC(=O)NCCN(C)C)cc2)NC(=O)[C@@H]2C[C@@H](O)CN2C(=O)[C@H]([C@@H](C)O)NC1=O | MY1055 | - | 2 µg/mL |
| COc1ccc(CSC#N)cc1 | - | broth dilution | 600 µg/mL |
| Cc1ccc2oc(=O)c3c(c2c1)OC(N)=C(C#N)C3c1cc2ccccc2nc1Oc1ccccc1 | MTCC 227 | - | >1000 µg/mL |
| COc1cc(O)c2c(=O)oc(CO)c(CO)c2c1C | NCPF3153 | broth dilution / absorbance | >128 µg/mL |
| COc1ccc2nc(Oc3ccc(Cl)cc3)c(C3C(C#N)=C(N)Oc4c3c(=O)oc3ccc(C)cc43)cc2c1 | MTCC 227 | - | 500 µg/mL |
| CCCCC[C@@H](O)[C@H]1C(=O)O[C@H](C)[C@@H](O)/C=C/C=C/C=C/C=C/C=C(\C)[C@@H](O)[C@H](O)[C@H](O)C[C@H](O)C[C@H](O)C[C@H](O)C[C@H](O)C[C@@H]1O | IPA | - | 6.5 µg/mL |
| COc1cc(OC)c(C(C)=O)c(OC)c1 | - | - | >50 µg/mL |
| COc1cccc(CN=C=S)c1 | - | broth dilution | 150 µg/mL |
| C=C1OC(=O)c2c(OC)cc(OC)c(C)c21 | NCPF3153 | broth dilution / absorbance | >128 µg/mL |
| C/C=C\C(C)=C\[C@H](C)C(=O)C[C@H](O)CC1CC(=O)NC(=O)C1 | - | - | >100 µg/mL |
| N#CC1=C(N)N(c2nc(-c3ccccc3)cs2)C2=C(C(=O)CCC2)C1c1cc2cc(Cl)ccc2nc1F | MTCC 227 | broth dilution | 1000 µg/mL |
| CCC(C)CC(C)CCCCCCCCC(=O)N[C@H]1C[C@@H](O)[C@@H](O)NC(=O)[C@@H]2[C@@H](O)CCN2C(=O)[C@H]([C@H](O)CC(N)=O)NC(=O)[C@H]([C@H](O)[C@@H](O)c2ccc(OC(=O)NCCC(=O)O)cc2)NC(=O)[C@@H]2C[C@@H](O)CN2C(=O)[C@H]([C@@H](C)O)NC1=O | MY1055 | - | 4 µg/mL |
| C[C@@H]1[C@H](O)[C@@H](C)/C=C/C=C/CC/C=C/C=C/C=C/C=C/C(O[C@H]2O[C@H](C)[C@@H](O)[C@H](N)[C@@H]2O)CC2O[C@](O)(CC(O)C(O)CCC(O)CC(O)CC(O)CC(=O)O[C@H]1C)CC(O)C2C(=O)O | MTCC 227 | broth dilution | 100 µg/mL |
| Cc1ccc2nc(Oc3ccccc3)c(C3C(C#N)=C(N)OC4=C3C(=O)CC(C)(C)C4)cc2c1 | MTCC 227 | - | 250 µg/mL |
| C[C@@H]1[C@H](O)[C@@H](C)/C=C/C=C/CC/C=C/C=C/C=C/C=C/C(O[C@H]2O[C@H](C)[C@@H](O)[C@H](N)[C@@H]2O)CC2O[C@](O)(CC(O)C(O)CCC(O)CC(O)CC(O)CC(=O)O[C@H]1C)CC(O)C2C(=O)O | MTCC 227 | broth dilution | 1000 µg/mL |
| COc1cc2ccc(=O)oc2cc1OCC=C(C)C | - | - | 30 µg/mL |
| CC1CC(C)CC(C)C(O)/C(C#N)=C\C=C/CC(C2CCCC2C(=O)O)OC(=O)CC(O)C(C)C1 | - | resazurin / visual reading | 13.3 µg/mL |
| Cc1ccc(Oc2nc3ccc(C)cc3cc2C2C(C#N)=C(N)OC3=C2C(=O)CC(C)(C)C3)cc1 | MTCC 227 | - | 1000 µg/mL |
| Cc1ccc2nc(Oc3ccc(Cl)cc3)c(C3C(C#N)=C(N)Oc4c3c(=O)oc3ccc(C)cc43)cc2c1 | MTCC 227 | - | 250 µg/mL |
| CC1=CC[C@H]2C(C)(C)CCC[C@]2(C)[C@H]1C/C(OS(=O)(=O)[O-])=C(\C)CCC/C(C)=C/Cc1cc(O)ccc1O | ATCC 10231 | - | >100 µg/mL |
| Clc1cc2nc(C3CCNCC3)n(Cc3ccc(CNCCCn4ccnc4)cc3)c2cc1Cl | ATCC 10231 | - | >100 µM |
| CC1=CC[C@H]2C(C)(C)CCC[C@]2(C)[C@H]1C/C(OS(=O)(=O)[O-])=C(\C)CCC/C(C)=C/Cc1cc(O)ccc1O.[Na+] | ATCC 10231 | - | >100 µg/mL |
| COc1ccc2nc(Oc3ccc(C)cc3)c(C3C(C#N)=C(N)Oc4c3c(=O)oc3ccccc43)cc2c1 | MTCC 227 | - | 1000 µg/mL |
| Fc1ccc(Cn2c(C3CCNCC3)nc3cc(Cl)c(Cl)cc32)cc1 | ATCC 10231 | - | >100 µM |
| c1cc2c(cc1[C@H]1OC[C@H]3[C@@H]1CO[C@@H]3c1ccc3c(c1)OCO3)OCO2 | - | - | >50 µg/mL |
| CCOC(=O)c1cn(CC)c2cc(C)ccc2c1=O | ATCC 10231 | - | >100 µg/mL |
| COc1ccc2nc(Oc3ccc(C)cc3)c(C3C(C#N)=C(N)OC4=C3C(=O)CCC4)cc2c1 | MTCC 227 | - | 1000 µg/mL |
| CCOC(=O)C1=C(N)N(c2nc(-c3ccccc3)cs2)C2=C(C(=O)CCC2)C1c1cc2cc(OC)ccc2nc1F | MTCC 227 | broth dilution | 100 µg/mL |
| CCn1c(C2CCNCC2)nc2cc(Cl)c(Cl)cc21 | ATCC 10231 | - | >100 µM |
| Cc1ccc(NC(=O)CN(C)CC(O)Cn2c(=O)c3ccccc3n(C)c2=O)cc1 | ATCC 76615 | agar diffusion | 16 µg/mL |
| CCn1cc(C(=O)Nn2c(C)nc3ccc([N+](=O)[O-])cc3c2=O)c(=O)c2ccc(C)nc21 | - | - | <50 µg/mL |
| CCC(C)CC(C)CCCCCCCCC(=O)N[C@H]1C[C@@H](O)[C@H](NCCN)NC(=O)[C@@H]2[C@@H](O)CCN2C(=O)[C@H]([C@H](O)CCN)NC(=O)[C@H]([C@H](O)[C@@H](O)c2ccc(O)cc2)NC(=O)[C@@H]2C[C@@H](O)CN2C(=O)[C@H]([C@@H](C)O)NC1=O | DSY294 | resazurin | 1 µg/mL |
| C[C@@H]1CCC2=C(CCCC2(C)C)[C@@]1(C)CC[C@H](CCCc1ccoc1)COS(=O)(=O)[O-] | ATCC 10231 | - | >100 µg/mL |
| CCC(C)CC(C)CCCCCCCCC(=O)N[C@H]1C[C@@H](O)[C@@H](O)NC(=O)[C@@H]2[C@@H](O)CCN2C(=O)[C@H]([C@H](O)CC(N)=O)NC(=O)[C@H]([C@H](O)[C@@H](O)c2ccc(OC(=O)N(C)CC(=O)O)cc2)NC(=O)[C@@H]2C[C@@H](O)CN2C(=O)[C@H]([C@@H](C)O)NC1=O | MY1055 | - | 4 µg/mL |
| COc1cccc(CSC#N)c1 | - | broth dilution | 600 µg/mL |
| CCOC(=O)C1=C(N)N(c2nc(-c3ccccc3O)cs2)C2=C(C(=O)CCC2)C1c1cc2cc(C)ccc2nc1F | MTCC 227 | broth dilution | 250 µg/mL |
| Clc1cc2nc(C3CCNCC3)n(Cc3ccc(CBr)cc3)c2cc1Cl | ATCC 10231 | - | >100 µM |
| COc1ccc(Oc2nc3ccc(C)cc3cc2C2C(C#N)=C(N)OC3=C2C(=O)CC(C)(C)C3)cc1 | MTCC 227 | - | 1000 µg/mL |
| CCCCCC1CC(O)CC(=O)O1 | ATCC 10231 | broth dilution | 93.7 µg/mL |
| COc1cc(O)c(C(C)=O)c(OC)c1 | FCF-243 | - | >500 µg/mL |

4 of the rows above, restated:

SMILES | strain or isolate | read by | result
COc1ccc2nc(Oc3ccc(Cl)cc3)c(C3C(C#N)=C(N)Oc4c3c(=O)oc3ccc(C)cc43)cc2c1 | MTCC 227 | - | 500 µg/mL
CCn1cc(C(=O)NC)c(=O)c2ccc(C)nc21 | - | - | 100–200 µg/mL
COc1ccc2nc(Oc3ccc(C)cc3)c(C3C(C#N)=C(N)Oc4c3c(=O)oc3ccc(C)cc43)cc2c1 | MTCC 227 | - | 200 µg/mL
COc1cc(O)c2c(=O)oc(CO)c(CO)c2c1C | NCPF3153 | broth dilution / absorbance | >128 µg/mL